Tests used:
[1] = target: mutant HIV reverse transcriptases (Human immunodeficiency virus type 1, UniProt P12497, Y768C, cells depend on it); test: Table 1 IC50 against mutant HIV reverse transcriptases; assay type: biochemical; details: read-out: IC50 Y181C; Y181C mutant RT
Procedure: (§1) Compounds of the invention were tested against the wild-type and four mutant HIV reverse transcriptases. The results are listed in Table 1 as EC50 (nM) and IC50 (nM). In the Table, A represents <50 nM, B is between 50 and 100 nM, and C is >100 nM. ND is not determined.

[2] = target: mutant HIV reverse transcriptases (Human immunodeficiency virus type 1, UniProt P12497, Y775L, cells depend on it); test: as above; assay type: biochemical; details: read-out: IC50 Y188L; Y188L mutant RT
Procedure: as §1

SMILES | IC50 [1] [nM] | IC50 [2] [nM]
Cc1ccc(-n2c(SCC(=O)Nc3ccc(S(=O)(=O)NCCC(=O)O)cc3Cl)nnc2C(F)F)c2c1CCCC2 [compound 58] | > 100 | > 100
Cc1cc(C2CC2)cc(Cl)c1-n1c(Br)nnc1SCC(=O)Nc1ccc(C(=O)O)cc1Cl [compound 28] | < 50 | > 100
Cc1ccc(-n2c(SCC(=O)Nc3ccc(S(=O)(=O)NCCN4CCOCC4)cc3Cl)nnc2C(F)F)c2c1CCCC2 [compound 57] | 50 to 100 | > 100
Cc1ccc(-n2c(SCC(=O)Nc3ccc(S(=O)(=O)NC(C)C(=O)O)cc3Cl)nnc2C(F)F)c2c1CCCC2 (centres unmarked) [compound 59] | > 100 | > 100
O=C(CSc1nnc(Br)n1-c1ccc(C2CC2)cc1OC(F)(F)F)Nc1ccc(S(=O)(=O)O)cc1Cl [compound 24] | 50 to 100 | > 100
NS(=O)(=O)c1ccc(NC(=O)CSc2nnc(Br)n2-c2ccc3c4c(cccc24)CC3)c(Cl)c1 [compound 37] | < 50 | 50 to 100
CCOC(=O)C(C)NS(=O)(=O)c1ccc(NC(=O)CSc2nnc(C(F)F)n2-c2ccc(C)c3c2CCCC3)c(Cl)c1 (centres unmarked) [compound 56] | > 100 | > 100
COc1ccc2cccc(-n3c(Br)nnc3SCC(=O)Nc3ccc(C(=O)O)cc3Cl)c2c1 [compound 13] | < 50 | > 100
Cc1cc(S(N)(=O)=O)ccc1NC(=O)CSc1nnc(CF)n1-c1c(C)cc(C)c2ccccc12 [compound 52] | > 100 | > 100
CCc1ccc(-n2c(Br)nnc2SCC(=O)Nc2ccc(C(=O)O)cc2Br)c2ccccc12 [compound 22] | < 50 | 50 to 100
Cc1cc(C(=O)O)ccc1NC(=O)CSc1nnc(C(F)F)n1-c1ccc(C)c2c1CCCC2 [compound 5] | > 100 | > 100
COc1ccc2c(C)ccc(-n3c(Br)nnc3SCC(=O)Nc3ccc(C(=O)O)cc3Cl)c2c1 [compound 18] | < 50 | < 50
Cc1cc(S(N)(=O)=O)ccc1NC(=O)CSc1nnc(C)n1-c1ccc(C)c2c1CCCC2 [compound 45] | > 100 | > 100
Cc1cc(S(N)(=O)=O)ccc1NC(=O)CSc1nnc(Br)n1-c1ccc(C2CC2)c2ccccc12 [compound 40] | < 50 | > 100
Cc1ccc(-n2c(SCC(=O)Nc3ccc(S(=O)(=O)NC(C(=O)O)C(C)C)cc3Cl)nnc2C(F)F)c2c1CCCC2 (centres unmarked) [compound 60] | > 100 | > 100
Cc1cc(C2CC2)c2ccccc2c1-n1c(Br)nnc1SCC(=O)Nc1ccc(C(=O)O)cc1Cl [compound 23] | < 50 | > 100
CCc1ccc(-n2c(CF)nnc2SCC(=O)Nc2ccc(S(N)(=O)=O)cc2C)c2ccccc12 [compound 49] | 50 to 100 | > 100
NS(=O)(=O)c1ccc(NC(=O)CSc2nncn2-c2ccc(C3CC3)c3ccccc23)c(Cl)c1 [compound 66] | 50 to 100 | > 100
CNS(=O)(=O)c1ccc(NC(=O)CSc2nnc(C(F)F)n2-c2ccc(C)c3ccccc23)c(Cl)c1 [compound 54] | < 50 | > 100
NS(=O)(=O)c1ccc(NC(=O)CSc2nnc(C(F)F)n2-c2ccc3c4c(cccc24)CC3)c(Cl)c1 [compound 36] | < 50 | > 100
COc1cccc2c(-n3c(Br)nnc3SCC(=O)Nc3ccc(C(=O)O)cc3Cl)cccc12 [compound 27] | 50 to 100 | > 100
O=C(CSc1nnc(Br)n1-c1ccc(C2CC2)cc1C(F)(F)F)Nc1ccc(C(=O)O)cc1Cl [compound 30] | 50 to 100 | > 100
CCc1ccc(-n2c(SCC(=O)Nc3ccc(C(=O)O)cc3Cl)nnc2C(F)F)c2ccccc12 [compound 4] | < 50 | > 100
Cc1cc(C2CC2)cc(C)c1-n1c(Br)nnc1SCC(=O)Nc1ccc(C(=O)O)cc1Cl [compound 33] | < 50 | > 100
CNS(=O)(=O)c1ccc(NC(=O)CSc2nnc(C(F)F)n2-c2ccc(C)c3c2CCCC3)c(Cl)c1 [compound 51] | < 50 | > 100
Cc1cc(S(N)(=O)=O)ccc1NC(=O)CSc1nnc(C(F)F)n1-c1ccc(C)c2c1CCCC2 [compound 48] | < 50 | > 100
CCc1ccc(-n2c(Br)nnc2SCC(=O)Nc2ccc(C(=O)O)cc2C)c2ccccc12 [compound 6] | 50 to 100 | > 100
O=C(CSc1nnc(Br)n1-c1c(Cl)cc(C2CCC2)c2ccccc12)Nc1ccc(C(=O)O)cc1Cl [compound 25] | < 50 | 50 to 100

SMILES | IC50 [1] [nM] | IC50 [2] [nM]
O=C(CSc1nnc(Br)n1-c1ccc(C2CCC2)c2ccccc12)Nc1ccc(C(=O)O)cc1Cl [compound 26] | < 50 | > 100
Cc1ccc2c(C)cc(C)c(-n3c(SCC(=O)Nc4ccc(S(N)(=O)=O)cc4Cl)nnc3C(F)F)c2n1 [compound 63] | 50 to 100 | > 100
CCc1ccc(-n2c(SCC(=O)Nc3ccc(S(N)(=O)=O)cc3Cl)nnc2C(F)F)c2c1CCCC2 [compound 47] | < 50 | > 100
Cc1cc(S(N)(=O)=O)ccc1NC(=O)CSc1nnc(Br)n1-c1ccc(F)c2ccccc12 [compound 62] | > 100 | > 100
CCc1cc(C2CC2)ccc1-n1c(Br)nnc1SCC(=O)Nc1ccc(C(=O)O)cc1Cl [compound 29] | 50 to 100 | > 100
Cc1ccc(-n2c(C)nnc2SCC(=O)Nc2ccc(S(N)(=O)=O)cc2Cl)c2c1CCCC2 [compound 46] | 50 to 100 | > 100
Cc1cc(C)c2ccccc2c1-n1c(CF)nnc1SCC(=O)Nc1ccc(S(N)(=O)=O)cc1Cl [compound 53] | < 50 | > 100
O=C(CSc1nnc(C(F)F)n1-c1ccc(C2CC2)c2ccccc12)Nc1ccc(C(=O)O)cc1Cl [compound 14] | < 50 | > 100
CCc1ccc(-n2c(CF)nnc2SCC(=O)Nc2ccc(S(=O)(=O)NC)cc2Cl)c2ccccc12 [compound 55] | < 50 | > 100
O=C(CSc1nnc(Br)n1-c1cccc2c(OCC3CC3)cccc12)Nc1ccc(C(=O)O)cc1Cl [compound 32] | > 100 | > 100
Cc1cc(C2CC2)c2ccccc2c1-n1c(Br)nnc1SCC(=O)Nc1ccc(S(N)(=O)=O)cc1Cl [compound 50] | < 50 | 50 to 100
NS(=O)(=O)c1ccc(NC(=O)CSc2nnc(Br)n2-c2ccc(F)c3ccccc23)c(Cl)c1 [compound 61] | < 50 | > 100
Cc1cc(C2CC2)c2ccccc2c1-n1c(Br)nnc1SCC(=O)Nc1ccc(S(=O)(=O)O)cc1Cl [compound 15] | < 50 | 50 to 100
O=C(CSc1nnc(Br)n1-c1ccc(C2CC2)cc1Cl)Nc1ccc(C(=O)O)cc1Cl [compound 31] | < 50 | > 100
CCc1ccc(-n2c(SCC(=O)Nc3ccc(C(=O)O)cc3C)nnc2C(F)F)c2ccccc12 [compound 3] | > 100 | > 100
O=C(CSc1nnc(Br)n1-c1ccc(C2CC2)cc1Cl)Nc1ccc(S(=O)(=O)O)cc1Cl [compound 21] | < 50 | > 100
CCc1ccc(-n2c(C)nnc2SCC(=O)Nc2ccc(S(N)(=O)=O)cc2Cl)c2c1CCCC2 [compound 43] | 50 to 100 | > 100
Cc1cc(S(N)(=O)=O)ccc1NC(=O)CSc1nnc(CF)n1-c1ccc(C)c2c1CCCC2 [compound 65] | > 100 | > 100
Cc1ccc(-n2c(SCC(=O)Nc3ccc(C(=O)O)cc3Cl)nnc2C(F)F)c2c1CCCC2 [compound 2] | < 50 | > 100
Cc1ccc2c(C)cc(C)c(-n3c(SCC(=O)Nc4ccc(S(N)(=O)=O)cc4C)nnc3C(F)F)c2n1 [compound 64] | > 100 | > 100
CCc1ccc(-n2c(SCC(=O)Nc3ccc(C(=O)O)cc3Cl)nnc2C(F)(F)F)c2ccccc12 [compound 16] | < 50 | > 100
CCc1ccc(-n2c(CF)nnc2SCC(=O)Nc2ccc(C(=O)O)cc2Cl)c2ccccc12 [compound 17] | < 50 | > 100
CCc1ccc(-n2c(Br)nnc2SCC(=O)Nc2ccc(S(=O)(=O)O)cc2Br)c2ccccc12 [compound 20] | < 50 | 50 to 100
CCc1ccc(-n2c(Br)nnc2SCC(=O)Nc2ccc(C(=O)O)cc2Cl)c2ccccc12 [compound 8] | < 50 | > 100
CCc1ccc(-n2c(C)nnc2SCC(=O)Nc2ccc(S(N)(=O)=O)cc2C)c2c1CCCC2 [compound 41] | > 100 | > 100
NS(=O)(=O)c1ccc(NC(=O)CSc2nnc(C(F)F)n2-c2ccc(C3CC3)c3ccccc23)c(Cl)c1 [compound 44] | < 50 | > 100
Cc1cc(S(N)(=O)=O)ccc1NC(=O)CSc1nnc(Br)n1-c1ccc2c3c(cccc13)CC2 [compound 38] | < 50 | > 100

— patent publication US8946273B2, “S-Triazolyl alpha-mercapto acetanilides as inhibitors of HIV reverse transcriptase” (priority 2011, dated 2015)
